Measurements taken from article PMC12892976, “Alkylation-based optimization of antifungal FPPS inhibitors yields a potent, broad-spectrum lipophilic zoledronate derivative” (mBio, 2025).

Tested on: HEK-293T cells
Experiment: MTT reduction cytotoxicity assay
Type: cell-based, human
Settings: for Ratio (GM fungal MIC vs HEK IC50): HEK IC50 relative to GM fungal MIC; for Ratio (GM fungal MICc vs HEK IC50): HEK IC50 relative to GM fungal MICc

Structure (SMILES) | Ratio (GM fungal MIC vs HEK IC50) | Ratio (GM fungal MICc vs HEK IC50)
CCCCCCCCCCN1CCC[C@H]1C(=O)N[C@H](CC(=O)OC)C(=O)OC [dmPDA10] | 0.089 | 0.126
CCCCCCCCCN1CCC[C@H]1C(=O)N[C@H](CC(=O)OC)C(=O)OC [dmPDA9] | 0.126 | 0.188
CCCCCCCCCCCCN1CCC[C@H]1C(=O)N[C@@H](CC(=O)OC)C(=O)OC [dmPLA12] | 0.053 | 0.178
CCCCCCCCCCCCN1CCC[C@H]1C(=O)N[C@H](CC(=O)O)C(=O)O [PDA12] | 0.715 | 3.209
O=P(O)(O)C(O)(Cn1ccnc1)P(=O)(O)O [ZOL, zoledronate] | 13.404 | 92.814
CCCCCCCCCCN1CCC[C@H]1C(=O)N[C@@H](CC(=O)OC)C(=O)OC [dmPLA10] | 0.076 | 0.197
CCCCCCCCCCCN1CCC[C@H]1C(=O)N[C@@H](CC(=O)OC)C(=O)OC [dmPLA11] | 0.31 | 0.506
CCCCCCCCCN1CCC[C@H]1C(=O)N[C@@H](CC(=O)OC)C(=O)OC [dmPLA9] | 0.323 | 0.791
CCCCCCCCCCCN1CCC[C@H]1C(=O)N[C@H](CC(=O)OC)C(=O)OC [dmPDA11] | 0.089 | 0.244
CCCCCCCCCCCCN1CCC[C@H]1C(=O)N[C@H](CC(=O)OC)C(=O)OC [dmPDA12] | 0.003 | 0.013
